A mixed list of measured activities; the numbers were collected in NIAID ChemDB.

Shared fields: enzyme or target tests; organism: Herpes simplex virus 1; protein: Thymidine kinase; measure: IC50

Lines come from different laboratories, so protocols vary.

compound | strain or isolate | result
Cc1ccc(S(=O)(=O)NC[C@H]2O[C@@H](n3cc(C)c(=O)[nH]c3=O)C[C@@H]2O)cc1 |  | >200 µM
O=c1[nH]c(=O)n(C/C=C\COC(c2ccccc2)(c2ccccc2)c2ccccc2)cc1/C=C/Br |  | >100 µM
C#C[C@H]1O[C@@H](n2cc(C)c(=O)[nH]c2=O)C[C@@H]1O | KOS | 3 µM
Nc1nc(=O)n([C@@H]2O[C@H](CO)[C@@H](O)[C@@H]2F)cc1/C=C/C(=O)O | F | >200 µM
CCc1cn([C@H]2C[C@H](O)[C@@H](CNC(=O)[C@@H](C)Oc3ccc(Cl)cc3Cl)O2)c(=O)[nH]c1=O |  | 0.03 µM
O=C(NC[C@H]1O[C@@H](n2cc(I)c(=O)[nH]c2=O)C[C@@H]1O)c1ccccc1 |  | 85 µM
O=c1[nH]c(=O)n([C@@H]2O[C@H](CO)[C@@H](O)[C@@H]2F)cc1/C=C/Br | F | <200 µM
Cc1cn([C@H]2C[C@H](O)[C@@H](CNS(=O)(=O)C(F)(F)F)O2)c(=O)[nH]c1=O |  | >200 µM
Nc1nc(=O)n([C@@H]2O[C@H](CO)[C@@H](O)[C@@H]2F)cc1/C=C/I | F | >200 µM
O=c1[nH]c(=O)n([C@H]2C[C@H](O)[C@@H](CO)O2)cc1C(F)(F)F |  | 0.25 µM
CCCCCCCCCCCC(=O)OC/C=C/Cn1cc(C)c(=O)[nH]c1=O |  | 19 µM
CCc1cn([C@H]2C[C@H](O)[C@@H](CNC(=O)COc3ccccc3)O2)c(=O)[nH]c1=O |  | 0.7 µM
Cc1cn([C@H]2C[C@H](O)[C@@H](CNS(=O)(=O)CCCS(=O)(=O)O)O2)c(=O)[nH]c1=O |  | >200 µM
CCc1cn([C@H]2C[C@H](O)[C@@H](COS(=O)(=O)c3ccc(C)cc3)O2)c(=O)[nH]c1=O |  | 12.7 µM
C=Cc1cn([C@@H]2O[C@H](CO)[C@@H](O)[C@@H]2F)c(=O)nc1N | F | >200 µM
CCc1cn([C@H]2C[C@H](O)[C@@H](CNC(=O)Cc3ccccc3)O2)c(=O)[nH]c1=O |  | 1 µM
CCCCCC(=O)OC/C=C/Cn1cc(C)c(=O)[nH]c1=O |  | 11 µM
CCCCCCCCOP(=O)(O)OC[C@H]1O[C@@H](n2cc(CC)c(=O)[nH]c2=O)C[C@@H]1O |  | 9.2 µM
CCc1cn([C@@H]2O[C@H](CO)[C@@H](O)[C@@H]2F)c(=O)nc1N | F | >200 µM
CC(=O)NC[C@H]1O[C@@H](n2cc(I)c(=O)[nH]c2=O)C[C@@H]1O |  | >200 µM
CCc1cn([C@H]2C[C@H](O)[C@@H](CO)O2)c(=O)[nH]c1=O |  | 0.34 µM

2 of the rows above, restated:

CC(=O)NC[C@H]1O[C@@H](n2cc(I)c(=O)[nH]c2=O)C[C@@H]1O ; result: >200 µM
O=c1[nH]c(=O)n(C/C=C\COC(c2ccccc2)(c2ccccc2)c2ccccc2)cc1/C=C/Br ; result: >100 µM

Blank or dashed fields: not listed here. ICn: concentration for n% inhibition.